Results from PMC7641913.

Protein sequences, listed by entry. Tags and fused reporters are not part of them. Lines headed by an entry give the natural chain unless they say otherwise; changes in a name come on top.
UniProt P0C6C8: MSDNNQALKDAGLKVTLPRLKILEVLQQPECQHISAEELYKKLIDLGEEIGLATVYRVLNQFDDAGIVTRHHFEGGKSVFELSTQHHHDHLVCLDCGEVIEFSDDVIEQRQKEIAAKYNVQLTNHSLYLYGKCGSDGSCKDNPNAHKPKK

Biological target: His-Fur (UniProt P0C6C8)
Experiment: DNase I footprinting
Conditions: 100 uM MnCl, 1 mM MgCl2, 2.95 and 8.85 pmol His-Fur; 10 mM Tris-HCl pH 7.5, 50 mM KCl, 1 mM MgCl2, 0.5 mM DTT, 0.05 mg/ml BSA, 10 mg/ml salmon sperm DNA; room temperature, 20 min; recombinant protein; residues 1-150; protein details: 6xHis (pET28a); label: FAM or HEX; probe letters rebuilt from the primers and the genome

“GTAAAACGACGGCCAGTATCTCAGGTTTGGCTTCGATAGCGGGAGTTGGCTCTGCAGGAGTCTCAGGCGCAGTTTCAGGTACTTCATTGGCTTTAGCCGCTTCCGCATCCATCTGCGGTTTGAGATAAAACAGATAAAATCCCGCACCTGCTCCACCTAATCCGAGTATCAGCACGAGTAGCATGAGTATTTTTTTCATTTTCCCCCGCTCGTAAAATTTCTCTAGCGCAACGTCATTGATATGAAAATGCGACGAATCTTACTTTCTTATCAATATAGCGGGATATTTGAACAAAGCTTGACCAGAAATCTTCTGATAAAAAGATTTTTTGAAGTAAAGGCACACTTCATGCTGTC (double strand) [cdgD footprinting probe]”: binds.
“GTAAAACGACGGCCAGTCTTCTGTAGGAATTTTCTCTCAAAAAGATCACAACAACAGAATAGGAGGATTTATTTACGCTAAAGCTATTAATAACGTTGCCTATTTTATCTTTATTACATTATTATTTATCTATAAGTGTGATCTCTGCCATGGGTCTGTGACGATTGAAACGATATTTCTTTACATTACTGTTAAGTGTTTTTGCATTATTTGTGCGTGCTGCGGATTATTTGGATCCGAATGAGCAAGCGTATGTAGAGCAAAAATCTACAGTCACCATTGCAGTATTAAAAGAAATCTGGATGCCTTACTGGGGTGGGACAGGTCAGGAGCCGATAGGGTCATA (double strand) [vieS footprinting probe]”: binds.

The exact form of at least one protein or probe is not confirmed.
